Reference: PMC7616463 (Journal of medicinal chemistry, 2024)

Test: general procedure: solution-phase peptide synthesis; T3P, NMM
Settings: coupling step

Going from “tert-Butyl (3S,6S,12R)-6-((S)-sec-butyl)-3-cyclopentyl-1,4,7,10-tetraoxo-1-(6-phenyl-pyridin-2-yl)-12-((3aS,4S,6S,7aR)-3a,5,5-trimethylhexahydro-4,6-methanobenzo[d] [1,3,2]dioxaborol-2-yl)-2,5,8,11-tetraazapentadecan-15-oate (24b)” to “tert-Butyl (3S,6S,12R)-6-((S)-sec-butyl)-3-cyclopentyl-1,4,7,10-tetraoxo-1-(quinolin-2-yl)-12-((3aS,4S,6S,7aR)-3a,5,5-trimethylhexahydro-4,6-methanobenzo[d][1,3,2] dioxaborol-2-yl)-2,5,8,11-tetraazapentadecan-15-oate (24a)”, the step yield rises from 39% to 55%.

Compared with “tert-Butyl (3S,6S,12R)-6-((S)-sec-butyl)-3-cyclopentyl-1-(3,5-dimethylphenyl)-1,4,7, 10-tetraoxo-12-((3aS,4S,6S,7aR)-3a,5,5-trimethylhexahydro-4,6-methanobenzo[d] [1,3,2]dioxaborol-2-yl)-2,5,8,11-tetraazapentadecan-15-oate (24c)”, “tert-Butyl ((S)-1-cyclopentyl-2-(((2S,3S)-3-methyl-1-oxo-1-((2-oxo-2-(((R)-1-((3aS,4S, 6S,7aR)-3a,5,5-trimethylhexahydro-4,6-methanobenzo[d][1,3,2]dioxaborol-2-yl) ethyl)amino)ethyl)amino)pentan-2-yl)amino)-2-oxoethyl)carbamate” is higher in step yield: 37% for the first, 73% for the second.

Same assay, conditions: late stage modification step

Going from “N-((S)-1-cyclopentyl-2-(((2S,3S)-1-((2-(((R)-2-hydroxy-6-oxo-1,2-oxaborinan-3-yl)amino)-2-oxoethyl)amino)-3-methyl-1-oxopentan-2-yl)amino)-2-oxoethyl)-6-phenylpicolinamide (4b)” to “N-((S)-1-cyclopentyl-2-(((2S,3S)-3-methyl-1-oxo-1-((2-oxo-2-(((R)-1-((3aS,4S,6S, 7aR)-3a,5,5-trimethylhexahydro-4,6-methanobenzo[d][1,3,2]dioxaborol-2-yl)ethyl) amino)ethyl)amino)pentan-2-yl)amino)-2-oxoethyl)-3,5-dimethylbenzamide”, the step yield falls from 93% to 64%.

First: N-((S)-1-cyclopentyl-2-(((2S,3S)-3-methyl-1-oxo-1-((2-oxo-2-(((R)-1-((3aS,4S,6S, 7aR)-3a,5,5-trimethylhexahydro-4,6-methanobenzo[d][1,3,2]dioxaborol-2-yl)ethyl) amino)ethyl)amino)pentan-2-yl)amino)-2-oxoethyl)cyclobutanecarboxamide
Second: N-((S)-1-cyclopentyl-2-(((2S,3S)-3-methyl-1-oxo-1-((2-oxo-2-(((R)-1-((3aS,4S, 6S,7aR)-3a,5,5-trimethylhexahydro-4,6-methanobenzo[d][1,3,2]dioxaborol-2-yl) ethyl)amino)ethyl)amino)pentan-2-yl)amino)-2-oxoethyl)benzamide
The step yield of the first is lower: 55% for the first, 62% for the second.

Compared with “N-((S)-1-cyclopentyl-2-(((2S,3S)-3-methyl-1-oxo-1-((2-oxo-2-(((R)-1-((3aS,4S, 6S,7aR)-3a,5,5-trimethylhexahydro-4,6-methanobenzo[d][1,3,2]dioxaborol-2-yl)ethyl) amino) ethyl)amino)pentan-2-yl)amino)-2-oxoethyl)quinoline-2-carboxamide”, “N-((S)-1-cyclopentyl-2-(((2S,3S)-3-methyl-1-oxo-1-((2-oxo-2-(((R)-1-((3aS,4S, 6S,7aR)-3a,5,5-trimethylhexahydro-4,6-methanobenzo[d][1,3,2]dioxaborol-2-yl)ethyl)amino)ethyl)amino)pentan-2-yl)amino)-2-oxoethyl)-6-phenylpicolinamide” is higher in step yield: 63% for the first, 64% for the second.
